Laboratory results from ChEMBL document CHEMBL1795211, “Evaluation of NTF1836 as an inhibitor of the mycothiol biosynthetic enzyme MshC in growing and non-replicating Mycobacterium tuberculosis” (Bioorg Med Chem, 2011).

Key:
[1] = biological target: T1, L-cysteine:1D-myo-inositol 2-amino-2-deoxy-alpha-D-glucopyranoside ligase (Mycobacterium tuberculosis) (UniProt P9WJM9); test: Inhibition of MshC in Mycobacterium tuberculosis Erdman ATCC 35801 assessed as reduction of mycothiol production at 20 to 75 uM after 7 days by HPLC based fluorescence assay relative to control; conditions: Mycobacterium tuberculosis str. Erdman
T1 sequence (whole entry): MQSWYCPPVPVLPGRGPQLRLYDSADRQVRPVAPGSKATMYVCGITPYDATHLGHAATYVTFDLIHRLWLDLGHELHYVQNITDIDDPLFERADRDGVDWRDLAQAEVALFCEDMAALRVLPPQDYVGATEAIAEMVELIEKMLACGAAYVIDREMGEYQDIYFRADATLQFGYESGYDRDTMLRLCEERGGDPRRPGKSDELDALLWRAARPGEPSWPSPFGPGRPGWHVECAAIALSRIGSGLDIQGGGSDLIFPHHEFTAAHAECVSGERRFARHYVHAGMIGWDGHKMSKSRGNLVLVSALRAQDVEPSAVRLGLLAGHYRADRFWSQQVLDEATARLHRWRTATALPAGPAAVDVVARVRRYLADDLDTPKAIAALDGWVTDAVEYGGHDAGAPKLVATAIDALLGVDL

[2] = biological target: T1, L-cysteine:1D-myo-inositol 2-amino-2-deoxy-alpha-D-glucopyranoside ligase (Mycobacterium tuberculosis); test: Inhibition of MshC in Mycobacterium tuberculosis Erdman ATCC 35801 assessed as increase of GlcN-Ins accumulation at 20 to 75 uM after 7 days by HPLC based fluorescence assay relative to control; conditions: Mycobacterium tuberculosis str. Erdman

## CN(CCCNC(=O)c1ccc2c(c1)N(Cc1cccc(Cl)c1)C(=O)c1ccccc1[S+]2[O-])C1CCCCC1 (configuration not stated)
[1]
  fold change (FC): 4
[2]
  fold change (FC): 9
